Results of unrelated studies side by side (data: NIAID ChemDB).

Common to all: enzyme or target tests; organism: HIV-1; protein: Protease

ICn is the concentration giving n% inhibition.

{"smiles": "CC(C)[C@H](NC(=O)[C@H](C)NC(=O)c1cccnc1)C(=O)N[C@@H](Cc1ccccc1)C(O)C(O)[C@H](Cc1ccccc1)NC(=O)[C@@H](NC(=O)[C@H](C)NC(=O)c1cccnc1)C(C)C", "mutations": "PR-V82F", "measure": "fold resistance", "result": "0.935"}
{"smiles": "CSC(C)(C)[C@H](NC(=O)COc1cccc2ccccc12)C(=O)N[C@@H](Cc1ccccc1)[C@H](O)C(=O)N1CSC[C@H]1C(=O)NC(C)(C)C", "measure": "inhibition", "dose": "0.05 µM", "result": "64.6%"}
{"smiles": "CC(C)C[C@H](NC(=O)[C@@H](NC(=O)CCCCCCCCCCCCCCC(=O)N[C@@H](CC(N)=O)C(=O)N[C@@H](Cc1ccccc1)C(=O)O)C(C)O)C(=O)N[C@@H](Cc1ccc(-c2ccccc2)cc1)C(N)=O", "mutations": "PR-L10I K45R I54V L63P A71V V82T L90M I93L", "measure": "fold resistance", "result": "~1"}
{"smiles": "CC(C)C[C@H](NC(=O)[C@@H](NC(=O)CCCCCCCCCCCCCCC(=O)N[C@@H](CC(N)=O)C(=O)N[C@@H](Cc1cccc2ccccc12)C(=O)O)C(C)O)C(=O)N[C@@H](Cc1ccc(-c2ccccc2)cc1)C(N)=O", "read by": "HPLC", "measure": "IC50", "result": "0.51 µM"}
{"smiles": "CC[C@H](C)[C@H](NC(=O)[C@@H](NC(=O)CCCCCCCCCCCCCCC(=O)N[C@@H](CC(N)=O)C(=O)N[C@@H](Cc1ccccc1)C(=O)O)C(C)O)C(=O)N[C@@H](Cc1ccccc1)C(N)=O", "measure": "Ki", "result": "0.5 µM"}
{"smiles": "COC(C)[C@H](NC(=O)COc1cccc2ccccc12)C(=O)N[C@@H](Cc1ccccc1)[C@H](O)C(=O)N1CSC[C@H]1C(=O)NC(C)(C)C", "measure": "inhibition", "dose": "0.05 µM", "result": "94.3%"}
{"smiles": "CCCC[C@H](NC(=O)c1cnc2ccccc2n1)C(=O)CC(Cc1ccc2ccccc2c1)C(=O)N[C@@H](CCC(N)=O)C(N)=O", "read by": "fluorescence", "measure": "IC10", "result": "7 µM"}
{"smiles": "Nc1cccc(C(=O)N[C@H](Cc2ccccc2)C[C@H](O)[C@H](Cc2ccccc2)NC(=O)c2cccc(N)c2)c1", "mutations": "PR-R8Q", "read by": "substrate cleavage", "measure": "fold resistance", "result": "5.67"}
{"smiles": "CC(C)(CCCCCNC(=O)c1ccccc1)CN(C[C@@H](O)[C@H](Cc1ccccc1)NC(=O)O[C@H]1CO[C@H]2OCC[C@H]21)S(=O)(=O)c1ccc2c(c1)OCO2", "read by": "fluorescence", "measure": "Ki", "result": "<0.001 µM"}
{"smiles": "CC(O)[C@H](NC(=O)CCCCCCCCCCCCCCC(=O)N[C@@H](Cc1ccc(N)cc1)C(=O)N[C@@H](Cc1ccccc1)C(=O)O)C(=O)N[C@H](C(=O)N[C@@H](Cc1ccccc1)C(N)=O)C1CCCCC1", "read by": "HPLC", "measure": "IC50", "result": "0.71 µM"}
{"smiles": "CC(C)C[C@H](NC(=O)[C@@H](NC(=O)CCCCCCCCCCCCCCC(=O)N[C@@H](CS(C)(=O)=O)C(=O)N[C@@H](Cc1ccccc1)C(=O)O)C(C)O)C(=O)N[C@@H](Cc1ccccc1)C(N)=O", "measure": "Ki", "result": "0.904 µM"}
{"smiles": "CC[C@@H](C)[C@H](NC(=O)[C@@H]1CCCN1C(=O)[C@@H](O)[C@H](CC1CCCCC1)NC(=O)[C@H](CS(C)(=O)=O)NC(=O)CCc1ccccc1)C(=O)N[C@H](C(N)=O)C(C)C", "measure": "inhibition", "dose": "5 µM", "result": "96.8%"}
{"smiles": "CON[C@H](C(=O)NC(=O)[C@H]1N(C(=O)[C@@H](O)[C@H](Cc2ccccc2)NC(=O)[C@@H](NC(=O)[C@H](Cc2ccccc2)NC(C)=O)C(C)C)CSC1(C)C)C(C)C", "mutations": "PR-V82A", "measure": "fold resistance", "result": "2"}
{"smiles": "CC(C)[C@H](NC(=O)[C@H](C)NC(=O)OCc1ccccc1)C(=O)N[C@@H](Cc1ccccc1)[C@@H](O)[C@H](O)[C@H](Cc1ccccc1)NC(=O)[C@@H](NC(=O)[C@H](C)NC(=O)OCc1ccccc1)C(C)C", "mutations": "PR-V82F", "measure": "fold resistance", "result": "4"}
{"smiles": "CC(C)[C@H](NC(=O)[C@@H](NC(=O)CCCCCCCCCCCCCCC(=O)N[C@@H](CC(N)=O)C(=O)N[C@@H](Cc1ccccc1)C(=O)O)C(C)O)C(=O)N[C@@H](Cc1ccccc1)C(N)=O", "measure": "Ki", "result": "1.35 µM"}
{"smiles": "CC(C)C[C@H](NC(=O)CCCCCCCCCCCCCCC(=O)N[C@@H](CC(N)=O)C(=O)N[C@@H](CC1CCCCC1)C(=O)O)C(=O)N[C@@H](CC(C)C)C(=O)N[C@@H](Cc1ccccc1)C(N)=O", "read by": "HPLC", "measure": "IC50", "result": "0.54 µM"}
{"smiles": "CC(C)C[C@H](NC(=O)[C@H](Cc1ccccc1)NC(=O)CCCCCCCCCCCCCCC(=O)N[C@@H](CC(N)=O)C(=O)N[C@@H](Cc1ccccc1)C(=O)O)C(=O)N[C@@H](Cc1ccccc1)C(N)=O", "mutations": "PR-L10I K45R I54V L63P A71V V82T L90M I93L", "measure": "fold resistance", "result": "~1.25"}
{"smiles": "CC(C)(C)NC(=O)[C@H]1N(C(=O)[C@@H](O)[C@H](Cc2ccccc2)NC(=O)[C@H](CC(N)=O)NC(=O)COc2ccc(-c3ccccc3)cc2)CSC1(C)C", "measure": "inhibition", "dose": "0.05 µM", "result": "98%"}
{"smiles": "CC(C)[C@H](NC(=O)[C@H](C)NC(=O)OCc1ccccc1)C(=O)N[C@@H](Cc1ccccc1)[C@@H](O)[C@H](O)[C@H](Cc1ccccc1)NC(=O)[C@@H](NC(=O)[C@H](C)NC(=O)OCc1ccccc1)C(C)C", "mutations": "PR-V82F", "measure": "fold resistance", "result": "3.75"}
{"smiles": "CC(C)C[C@H](NC(=O)[C@@H](NC(=O)CCCCCCCCCCCCCCC(=O)N[C@@H](CC(N)=O)C(=O)N[C@@H](Cc1ccccc1)C(=O)O)C(C)C)C(=O)N[C@@H](Cc1ccccc1)C(N)=O", "measure": "Ki", "result": "0.89 µM"}
{"smiles": "CC(C)(C)NC(=O)[C@@H]1CSCN1C(=O)[C@@H](O)[C@H](Cc1ccccc1)NC(=O)[C@H](CS(C)(=O)=O)NC(=O)c1cc2ccccc2o1", "measure": "inhibition", "dose": "0.05 µM", "result": "80.5%"}
{"smiles": "CSCC[C@H](NC(=O)CCCCCCCCCCCCCCC(=O)N[C@H](C(=O)N[C@H](C(=O)N[C@@H](Cc1ccccc1)C(N)=O)C1CCCCC1)C(C)O)C(=O)N[C@@H](Cc1ccccc1)C(=O)O", "read by": "HPLC", "measure": "IC50", "result": "0.48 µM"}
{"smiles": "CC(C)C[C@H](NC(=O)[C@@H](NC(=O)CCCCCCCCCCCCCCC(=O)N[C@@H](CC(N)=O)C(=O)N[C@@H](Cc1ccccc1)C(=O)O)C(C)O)C(=O)N[C@@H](Cc1cc(I)c(Oc2cc(I)c(O)c(I)c2)c(I)c1)C(N)=O", "mutations": "PR-L10I K45R I54V L63P A71V V82T L90M I93L", "measure": "fold resistance", "result": "~1"}
{"smiles": "CC[C@@H](C)[C@H](NC(=O)[C@@H]1CCCN1C(=O)[C@@H](O)[C@H](Cc1ccccc1)NC(=O)[C@H](CC(N)=O)NC(=O)COc1ccccc1)C(=O)N[C@H](C(N)=O)C(C)C", "measure": "inhibition", "dose": "5 µM", "result": "98.8%"}
{"smiles": "CC(C)C[C@H](NC(=O)[C@@H](NC(=O)CCCCCCCCCCCCCCC(=O)N[C@@H](CS(C)(=O)=O)C(=O)N[C@@H](Cc1ccccc1)C(=O)O)C(C)O)C(=O)N[C@H](C(N)=O)C1CCCCC1", "read by": "HPLC", "measure": "IC50", "result": "0.58 µM"}
{"smiles": "CC(C)N(C(=O)NCCCCC(C)(C)CN(C[C@@H](O)[C@H](Cc1ccccc1)NC(=O)O[C@H]1CO[C@H]2OCC[C@H]21)S(=O)(=O)c1ccc2c(c1)OCO2)C(C)C", "read by": "fluorescence", "measure": "Ki", "result": "<0.001 µM"}

For reference, 3 entries again:

| smiles | mutations | read by | measure | dose | result |
|---|---|---|---|---|---|
| CC(C)[C@H](NC(=O)[C@@H](NC(=O)CCCCCCCCCCCCCCC(=O)N[C@@H](CC(N)=O)C(=O)N[C@@H](Cc1ccccc1)C(=O)O)C(C)O)C(=O)N[C@@H](Cc1ccccc1)C(N)=O |  |  | Ki |  | 1.35 µM |
| CC(C)C[C@H](NC(=O)CCCCCCCCCCCCCCC(=O)N[C@@H](CC(N)=O)C(=O)N[C@@H](CC1CCCCC1)C(=O)O)C(=O)N[C@@H](CC(C)C)C(=O)N[C@@H](Cc1ccccc1)C(N)=O |  | HPLC | IC50 |  | 0.54 µM |
| CC[C@@H](C)[C@H](NC(=O)[C@@H]1CCCN1C(=O)[C@@H](O)[C@H](CC1CCCCC1)NC(=O)[C@H](CS(C)(=O)=O)NC(=O)CCc1ccccc1)C(=O)N[C@H](C(N)=O)C(C)C |  |  | inhibition | 5 µM | 96.8% |

Inhibition is in % at the dose shown (toxicity tests: loss of growth or viability). Conditions beyond the fields shown may differ between rows. Blank or dashed fields: not listed here. Fold resistance has wild type as its base.